Pooled drug test results. Numbers come from NIAID ChemDB, via PubChem.

All rows: growth or infection tests; organism: HIV-1

Conditions beyond the fields shown may differ between rows.

{"structure": "CCn1nc(Cc2ccc(OC)c(C#N)c2)cc1C1CCN(C[C@H]2CN([C@@H](C(=O)O)C(C)(C)C)C[C@@H]2c2cccc(F)c2)CC1", "strain": "BaL", "cells": "HeLa", "read by": "β-galactosidase", "measure": "EC90", "value": "<0.00014 µM"}
{"structure": "CC(=O)N1CCC(C(=O)N(CCCN2CCC(Cc3ccc(C(N)=O)cc3)CC2)c2ccc(C)c(Cl)c2)CC1", "strain": "R5 subtype B_3 recombinant", "cells": "U87 (CD4+ CCR5+) + U87", "read by": "luciferase", "measure": "EC50", "value": "0.0013 µM"}
{"structure": "CCCCCCCCCCCCCCCCOP(=O)(OC[C@H]1OC(O)[C@H](O)[C@@H](O)[C@@H]1O)OC[C@H]1O[C@@H](n2cc(C)c(=O)[nH]c2=O)C[C@@H]1N=[N+]=[N-]", "strain": "LAV-Bru", "cells": "CEM", "read by": "RT activity", "conditions": "26 d", "measure": "inhibition", "dose": "0.2 µM", "value": "0%"}
{"structure": "C#C[C@]1(CO)O[C@@H](n2cnc3c(N)nc(F)nc32)C[C@@H]1O", "strain": "Clinical isolate", "mutations": "M41L", "cells": "MT4-GFP", "read by": "fluorescence", "measure": "EC50", "value": "0.0008 µM"}
{"structure": "O=c1[nH]cnc2c1ncn2C1CC[C@@H](CO)O1", "mutations": "L74V", "cells": "Primary T lymphocytes", "read by": "p24 / ELISA", "measure": "EC90", "value": "80.9 µM"}
{"structure": "CCCOc1ccc(Cc2cc(C3CCN(C[C@H]4CN([C@@H](C(=O)O)C(C)C)C[C@@H]4c4cccc(F)c4)CC3)n(CC)n2)cc1", "strain": "BaL", "cells": "HeLa", "read by": "β-galactosidase", "conditions": "50% human serum", "measure": "EC90", "value": ">0.3 µM"}
{"structure": "Cc1cn([C@H]2C[C@H](N=[N+]=[N-])[C@@H](COP(=O)(O)OC[C@H]3OC(O)[C@@H](O)[C@@H](O)[C@@H]3O)O2)c(=O)[nH]c1=O", "strain": "LAV-Bru", "cells": "CEM", "read by": "RT activity", "conditions": "7 d", "measure": "inhibition", "dose": "25 µM", "value": "95%"}
{"structure": "Cc1ccnc2c1NC(=O)c1cccnc1N2C1CC1", "strain": "NNRTI-resistant (RT V106I)", "mutations": "RT-V106I", "cells": "MAGI", "read by": "β-galactosidase", "measure": "EC50", "value": "0.15 µM"}
{"structure": "CCn1nc(Cc2ccc(F)c(F)c2)cc1C1CCN(C[C@H]2CN([C@@H](C(=O)O)C(C)C)C[C@@H]2c2cccc(F)c2)CC1", "strain": "BaL", "cells": "HeLa", "read by": "β-galactosidase", "conditions": "50% human serum", "measure": "EC90", "value": "0.3 µM"}
{"structure": "CC(C)c1nc(CN(C)C(=O)N[C@H](C(=O)N[C@@H](Cc2ccccc2)C[C@H](O)[C@H](Cc2ccccc2)NC(=O)OCc2cncs2)C(C)C)cs1", "strain": "NL4-3", "mutations": "PR-D30N N88D", "cells": "MT-4", "read by": "p24", "measure": "EC90", "value": "0.01 µM"}
{"structure": "Nc1nc(NC2CC2)c2ncn([C@H]3C=C[C@@H](CO)C3)c2n1", "strain": "Recombinant", "mutations": "RT-M41L S68N G112S M184V", "cells": "HeLa", "read by": "luciferase", "measure": "fold resistance", "value": "1.4"}
{"structure": "O=C(O)P(=O)(O)O", "strain": "IIIB", "cells": "PBL", "read by": "RT activity", "conditions": "6 d", "measure": "inhibition", "dose": "256 µM", "value": "100%"}
{"structure": "Cc1cn([C@H]2C[C@H](N=[N+]=[N-])[C@@H](CO)O2)c(=O)[nH]c1=O", "strain": "IIIB", "mutations": "D437N", "cells": "MT-2", "read by": "p24 / ELISA", "measure": "fold resistance", "value": "1.6"}
{"structure": "CC[C@@H](C)[C@H](C(=O)O)N1C[C@H](CN2CCC(c3cc(Cc4ccc5ccccc5c4)nn3CC)CC2)[C@@H](c2cccc(F)c2)C1", "strain": "BaL", "cells": "HeLa", "read by": "β-galactosidase", "conditions": "50% human serum", "measure": "EC90", "value": "0.3 µM"}
{"structure": "Cc1ccc(S(=O)(=O)N(CC(C)C)C[C@@H](O)[C@H](Cc2ccccc2)NC(=O)O[C@H]2CO[C@H]3OCC[C@H]32)cc1", "strain": "IIIB", "mutations": "8374-P62", "cells": "MT-2", "read by": "ATP", "measure": "fold resistance", "value": "5.2"}
{"structure": "Cc1cn([C@H]2C[C@H](N=[N+]=[N-])[C@@H](CO)O2)c(=O)[nH]c1=O", "strain": "NRTI resistant", "mutations": "RT-M184V", "cells": "HeLa", "read by": "luciferase", "measure": "fold resistance", "value": "0.3"}
{"structure": "Cc1ccc(-n2nnnc2SCC(=O)Nc2ccccc2[N+](=O)[O-])cc1", "cells": "MT-4", "read by": "p24", "measure": "EC95", "value": "<10 µM"}
{"structure": "CCN(c1nc(F)ccc1NC(C)(C)C)C1CCN(C(=O)c2cc3cc(NC(=O)N4CCN(C)CC4)ccc3[nH]2)CC1", "strain": "IIIB", "mutations": "K112M K113E V128I M200I H219P I401T R409K D437N L441P", "cells": "MT-2", "read by": "p24 / ELISA", "measure": "fold resistance", "value": "2.6"}
{"structure": "CC(C)=CCN1Cc2cc(Cl)cc3[nH]c(=S)n(c23)C[C@@H]1C", "mutations": "RT-D67N K70R T215Y K219Q K103N", "cells": "MT-4", "measure": "EC95", "value": ">3 µM"}
{"structure": "CCn1nc(Cc2ccc(S(=O)(=O)c3ccccc3)cc2)cc1C1CCN(C[C@H]2CN([C@@H](C(=O)O)C(C)(C)C)C[C@@H]2c2cccc(F)c2)CC1", "strain": "BaL", "cells": "HeLa", "read by": "β-galactosidase", "conditions": "50% human serum", "measure": "EC90", "value": "0.0037 µM"}
{"structure": "c1cc(CN2CCCNCCNCCCNCC2)ccc1CN1CCCNCCNCCCNCC1", "strain": "92TH001 CLADE E R5", "cells": "PBMC", "read by": "p24", "measure": "inhibition", "dose": "0.1 µM", "value": "21%"}
{"structure": "Cc1cn([C@H]2C[C@H](N=[N+]=[N-])[C@@H](CO)O2)c(=O)[nH]c1=O", "mutations": "K65R", "cells": "Primary T lymphocytes", "read by": "p24 / ELISA", "measure": "EC90", "value": "0.3 µM"}
{"structure": "O=C1N(Cc2ccc(CO)cc2)[C@H](Cc2ccccc2)[C@H](O)[C@@H](O)[C@@H](Cc2ccccc2)N1Cc1ccc(CO)cc1", "strain": "Y clinical isolate", "cells": "PBMC", "read by": "p24", "measure": "inhibition", "dose": "0.14 µM", "value": "90%"}
{"structure": "COc1ccc(NC(=O)CSc2nnnn2-c2c(C)cc(C)cc2C)c([N+](=O)[O-])c1", "cells": "MT-4", "read by": "p24", "measure": "EC95", "value": "<10 µM"}
{"structure": "CC[C@@H](C)[C@H](C(=O)O)N1C[C@H](CN2CCC(c3cc(Cc4ccc(OC(F)F)cc4)nn3CC)CC2)[C@@H](c2cccc(F)c2)C1", "strain": "BaL", "cells": "HeLa", "read by": "β-galactosidase", "measure": "EC90", "value": "<0.00014 µM"}
{"structure": "O=C(CSc1nnnn1-c1c(Cl)cccc1Cl)Nc1ccccc1Cl", "cells": "MT-4", "read by": "p24", "measure": "EC95", "value": "<10 µM"}
{"structure": "CC(=O)Nc1ccc(/C=C/c2ccc(N=C=S)cc2S(=O)(=O)O)c(S(=O)(=O)O)c1", "strain": "GB8", "cells": "JM", "read by": "p24", "measure": "inhibition", "dose": "100 µg/mL", "value": "98.4%"}
{"structure": "CC(C)=CCN1Cc2cc(Cl)cc3[nH]c(=S)n(c23)C[C@@H]1C", "strain": "HXB2", "mutations": "RT-L74V Y181C", "cells": "HT4 + HT4 LacZ-1", "read by": "plaque count", "measure": "fold resistance", "value": "36.4"}
{"structure": "O=C1N(Cc2ccc(CO)cc2)[C@H](Cc2ccccc2)[C@H](O)[C@@H](O)[C@@H](Cc2ccccc2)N1Cc1ccc(CO)cc1", "strain": "NL4-3", "mutations": "PR-L10R", "cells": "MT-4", "read by": "p24", "measure": "EC95", "value": "0.2 µM"}
{"structure": "C/C(=C(/CCOC(=O)C(C)C)SS/C(CCOC(=O)C(C)C)=C(\\C)N(C=O)Cc1cnc(C)nc1N)N(C=O)Cc1cnc(C)nc1N", "strain": "RF", "cells": "U-937/HIV-1(RF) + U-937", "read by": "p24", "measure": "inhibition", "dose": "50 µM", "value": "0%"}
{"structure": "Nc1ccn([C@@H]2CS[C@H](CO)O2)c(=O)n1", "mutations": "A62V V75I F77L F116Y Q151M", "cells": "Primary T lymphocytes", "read by": "p24 / ELISA", "measure": "EC90", "value": "2.7 µM"}
{"structure": "Cc1cn([C@H]2C[C@H](N=[N+]=[N-])[C@@H](CO)O2)c(=O)[nH]c1=O", "strain": "LAV-Bru", "cells": "CEM", "read by": "RT activity", "conditions": "22 d", "measure": "inhibition", "dose": "1 µM", "value": "66%"}
{"structure": "CC(=O)c1cccc(-n2nnnc2SCC(=O)Nc2ccccc2Cl)c1", "cells": "MT-4", "read by": "p24", "measure": "EC95", "value": "<10 µM"}
{"structure": "CC(C)CN(C[C@@H](O)[C@H](Cc1ccccc1)NC(=O)[C@H](CC(N)=O)NC(=O)c1ccc2ccccc2n1)C(=O)NC(C)(C)C", "strain": "NL4-3", "mutations": "PR-L10R L63P V82T", "cells": "MT-4", "read by": "p24", "measure": "EC95", "value": "0.4 µM"}
{"structure": "CCOc1ccc(Cc2cc(C3CCN(C[C@H]4CN([C@@H](C(=O)O)C(C)C)C[C@@H]4c4cccc(F)c4)CC3)n(CC)n2)cc1F", "strain": "BaL", "cells": "HeLa", "read by": "β-galactosidase", "conditions": "50% human serum", "measure": "EC90", "value": "0.1 µM"}

ECn is the concentration giving n% inhibition of infection, replication or growth. Percent inhibition refers to the dose given; in toxicity tests it is the harm to the cells. Fold resistance has wild type as its base.